Data on one sequence can be found in paper PMC5771124, “Characterization of a functional insertion sequence ISSau2 from Staphylococcus aureus”.

The data set deals with ISSau2 transposase OrfAB F226L (Staphylococcus aureus E48 (ISSau2 in sdrC)). Nature of the data set: EMSA. The following applies: Mg2+, poly(dI-dC), 0.42 ug OrfAB, similar affinity to IRL42; recombinant protein; protein details: N-terminal 6-His (pET32a vector fusion); label: biotin end label; letters put together from the description.

The exact form of at least one protein or probe is not confirmed.

For “AATTTTAATTATTTAATTGTCTACTAGACTGGGTGCAGTTCA (double strand) [IRR42]”, the binding result is reported as “binds”.
